Assay results published in paper PMC7913927, “Leishmanicidal Activity of Betulin Derivatives in Leishmania amazonensis; Effect on Plasma and Mitochondrial Membrane Potential, and Macrophage Nitric Oxide and Superoxide Production” (Microorganisms, 2021).

Tested on: LTB0016 intracellular amastigotes in J774.1 macrophages
Experiment: Macrophage-amastigote model, reference strain
Assay type: cell-based, Leishmania amazonensis
Description: We used a previously described methodology, with some modifications. Macrophage monolayers, grown in RMPIc medium, for 3 days, were detached from the bottom of the culture chamber, by physical treatment (low temperature and light strokes). Obtained macrophages were seeded in flat-bottom 96-well culture plates, at a density of 2 × 10^5 cells mL^−1 (40,000 macrophages/well), in a final volume of 200 µL. Plates were incubated for 2 h, and the supernatant was discarded to remove non-adhered macrophages. Medium was replaced with stationary-phase promastigotes suspended in 200 µL of RPMIc (2 × 10^6 parasites mL^−1, 400,000 parasites/well), at a macrophage: parasite ratio 1:10 [40]. The plates were incubated for 4 h. Afterwards the medium was replaced with fresh RPMIc and increasing concentrations of compounds or drugs tested were applied, in volumes of 2 µL, according to the different treatment groups. Plates were kept for 72 h, at 37 °C and 5% CO2. The medium was discarded and the wells were washed twice with PBS. Next, a Giemsa staining was performed in situ. […] The percentage of infected macrophages (% infection) and the average number of amastigotes present in infected macrophages (amastigotes) were determined. […] The infection rate represents the number of intracellular amastigotes per 100 macrophages evaluated. Additionally, the GI50 for the decrease in the infection rate was calculated. […]

`C=C(C)C1CCC2(C=NO)CCC3(C)C(CCC4C5(C)CCC(=NO)C(C)(C)C5CCC43C)C12` (centres unmarked) [Compound 18] was tested, and the “Selectivity index amastigote (ISa) LTB0016” value (CC50 MØJ774 / supplement mean GI50) was 172.99 and the SI (summary bound for reference strain LTB0016 and patient isolates, vs J774.1 macrophages) was over 20.
